Assay results taken from patent US6780418B1, “Reagents and immunoassay for the detection and quantitative determination of mycothiol and precursors thereof” (The Regents of the University of California, priority 1997, dated 2004).

Key:
S. aureus = experiment: Mycothiol component levels by HPLC (mBBr and AccQ-Fluor labeling); set-up: species or system Staphylococcus aureus; conditions: log phase
E. coli = experiment: as above; set-up: species or system Escherichia coli; conditions: log phase
anti-mycothiol antibody = experiment: ELISA of Example 4: thiol bound to maleimide-activated BSA, detected with affinity-purified anti-MSH antibody; format: binding, rabbit; conditions: pure MSH in buffer
Procedure: Known amounts of pure MSH (typically from 0 to 1 pmol/well) were reacted with maleimide-activated BSA (Pierce); maleimide activation levels were 16-19 mol maleimide per mol BSA. The maleimide-activated BSA was reconstituted to 10 mg/ml and this stock solution stored at −70° C. until needed. The stock solution was diluted to a working concentration of 5 ng/μl just before use and kept chilled on ice. MSH from the concentrated stock solution in 0.1% TFA was diluted into TBS (Tris-buffered saline: 0.1 M Tris, pH 7.3, 0.15 M NaCl, 0.04% NaN3) on ice and the diluted samples (40 μl per well) immediately added to the maleimide-activated BSA (60 μl per well). A “zero” standard consisted of TBS in place of an MSH solution. In practice, 168 μl of thiol standard were added to 252 μl of maleimide-activated BSA solution. Samples of unknown thiol content were reacted with maleimide-activated BSA in the same manner, providing a small excess volume for pipetting of quadruplicate samples of 100 μl per well. […] The plate was read at 405 nm on a microplate reader (Model EL311, Bio-Tek Instruments) that was programmed to automatically subtract blank values read from wells that received only the blocking agent, wash solutions, p-nitrophenyl phosphate, and stop solution. […]

anti-MSH antibody [1] = experiment: ELISA of Example 8: biotinylated MSH captured on NeutrAvidin, detected with anti-MSH antibody; format: binding, rabbit
anti-MSH antibody [2] = experiment: ELISA of Example 10: biotinylated MSH captured by anti-MSH antibody prebound via protein A; format: binding, rabbit
[3] = system: Mycobacterium smegmatis mc^26; experiment: MSH in cell lysates by monobromobimane labeling and HPLC analysis; conditions: HPLC
[4] = system: Mycobacterium smegmatis mc^26; experiment: MSH in cell lysates by ELISA; conditions: 40 μl
[5] = 4.8 × 10^6 CFU analyzed, 100 μl

SMILES: CC(=O)N[C@@H](CS)C(=O)O [AcCys, N-acetyl-cysteine]
- Content (S. aureus): 0.002 μmol/g residual dry weight
- Content (E. coli): <0.0006 μmol/g residual dry weight

SMILES: CC(=O)N[C@@H](CS)C(=O)N[C@@H]1[C@@H](O)[C@H](O)[C@@H](CO)O[C@@H]1O [AcCys-GlcN, 2-(N-acetyl-L-cysteinyl)amido-2-deoxy-α-d-glucopyranoside]
- Content (S. aureus): <0.004 μmol/g residual dry weight
- Content (E. coli): <0.004 μmol/g residual dry weight

SMILES: N[C@@H](CS)C(=O)O [Cys, L-cysteine]
- Content (S. aureus): 0.35 μmol/g residual dry weight
- Content (E. coli): 0.09 μmol/g residual dry weight

SMILES: N[C@@H](CS)C(=O)N[C@@H]1[C@@H](O)[C@H](O)[C@@H](CO)O[C@@H]1O [Cys-GlcN, 2-(L-cysteinyl)amido-2-deoxy-α-D-glucopyranoside]
- Content (S. aureus): <0.03 μmol/g residual dry weight
- Content (E. coli): <0.004 μmol/g residual dry weight

SMILES: N[C@@H](CS)C(=O)N[C@H]1[C@@H](OC2[C@H](O)[C@H](O)C(O)[C@H](O)[C@H]2O)O[C@H](CO)[C@@H](O)[C@@H]1O (stereo partly drawn) [Cys-GlcN-Ins, 1-D-myo-inosityl-2-(L-cysteinyl)amido-2-deoxy-α-D-glucopyranoside]
- Content (S. aureus): <0.05 μmol/g residual dry weight
- Content (E. coli): <0.004 μmol/g residual dry weight

SMILES: N[C@H]1C(O)O[C@H](CO)[C@@H](O)[C@@H]1O (stereo partly drawn) [GlcN, D-glucosamine]
- Content (S. aureus): 0.027 μmol/g residual dry weight
- Content (E. coli): 0.024 μmol/g residual dry weight

SMILES: N[C@H]1[C@@H](OC2[C@H](O)[C@H](O)C(O)[C@H](O)[C@H]2O)O[C@H](CO)[C@@H](O)[C@@H]1O (stereo partly drawn) [GlcN-Ins, 1-D-myo-inosityl-2-amino-2-deoxy-α-D-glucopyranoside]
- Content (S. aureus): <0.001 μmol/g residual dry weight
- Content (E. coli): <0.001 μmol/g residual dry weight

SMILES: S [H2S]
- Content (S. aureus): 0.36 μmol/g residual dry weight
- Content (E. coli): 1.7 μmol/g residual dry weight

SMILES: CC(=O)N[C@@H](CS)C(=O)N[C@H]1[C@@H](OC2[C@H](O)[C@H](O)C(O)[C@H](O)[C@H]2O)O[C@H](CO)[C@@H](O)[C@@H]1O (stereo partly drawn) [MSH, 1-D-myo-inosityl-2-(N-acetyl-L-cysteinyl)amido-2-deoxy-α-D-glucopyranoside]
- detection limit (anti-mycothiol antibody): at least 0.1 pmol
- useful range (anti-mycothiol antibody): 0.1 to 1 pmol
- detection limit (anti-MSH antibody [1]): at least 5 fmol
- useful range (anti-MSH antibody [1]; dependent primarily on development time): 5 to 300 fmol
- detection limit (anti-MSH antibody [2]): at least 0.3 fmol
- working range (anti-MSH antibody [2]; primarily dependent on development time): 0.3 to 300 fmol
- pmol MSH ([3]; 3.0 × 10^5 CFU analyzed, 50 μl): 4 pmol
- pmol/10^6 CFU ([3]; 3.0 × 10^5 CFU analyzed, 50 μl): 13.3 pmol/10^6 CFU
- pmol MSH [3, 5]: 67 pmol
- pmol/10^6 CFU [3, 5]: 14.0 pmol/10^6 CFU
- pmol MSH ([4]; 3.9 × 10^4 CFU analyzed): 0.40 ± 0.04 (4) pmol
- pmol/10^6 CFU ([4]; 3.9 × 10^4 CFU analyzed): 10.2 ± 1.0 (4) pmol/10^6 CFU
- pmol MSH ([4]; 7.7 × 10^3 CFU analyzed): 0.073 ± 0.011 (4) pmol
- pmol/10^6 CFU ([4]; 7.7 × 10^3 CFU analyzed): 9.4 ± 1.5 (4) pmol/10^6 CFU
- pmol MSH ([4]; 7.7 × 10^4 CFU analyzed): 1.02 ± 0.08 (4) pmol
- pmol/10^6 CFU ([4]; 7.7 × 10^4 CFU analyzed): 13.3 ± 1.0 (4) pmol/10^6 CFU
- Content (S. aureus): <0.04 μmol/g residual dry weight
- Content (E. coli): <0.1 μmol/g residual dry weight
